Pooled drug test results. Numbers come from NIAID ChemDB, via PubChem.

Shared fields: growth or infection tests; organism: Mycobacterium smegmatis; endpoint: MIC

Neighbouring rows are from separate reports. Blank or dashed fields: not listed here.

smiles	strain or isolate	result
CCCCCCCCCCCCCCOc1cc(-c2cccc(F)c2)nc2ccccc12	ATCC 607	125 µg/mL
CC1COc2c(N3CCN(C)CC3)c(F)cc3c(=O)c(C(=O)O)cn1c23	mc2155	0.5 µg/mL
CCCCCCCCCCCCCCC(=O)NC(CCC(=O)O)(CCC(=O)O)CCC(=O)O	mc155	54 µg/mL
CO/N=C(/CN1CCN(c2c(F)cc3c(=O)c(C(=O)O)cn(C4CC4)c3c2OC)CC1C)c1cc2ccccc2oc1=O	CMCC 93202	>12.5 µg/mL
CCCCCCCC(CCCCCCC)OC(=O)NC(CCC(=O)O)(CCC(=O)O)CCC(=O)O	mc155	105 µg/mL
CCc1[nH]c2ccccc2c1C1=C(Br)C(=O)NC1=O	SG987	7.95 µg/mL
CCCCCCOc1cc(-c2cccc(F)c2)nc2ccccc12	ATCC 607	125 µg/mL
CCCCCCCCCCCC#CCCC(=O)O	mc2155	30 µg/mL
CCCCCCCCCCOc1cc(-c2cccc(F)c2)nc2ccccc12	ATCC 607	125 µg/mL
CCCCCCCCCC(CCCCCCCCC)OC(=O)NC(CCC(=O)O)(CCC(=O)O)CCC(=O)O	mc155	54 µg/mL
CCc1cc(C(N)=S)ccn1	MC^2 846	>80 µg/mL
CO/N=C(/CN1CCN(c2c(F)cc3c(=O)c(C(=O)O)cn(C4CC4)c3c2OC)CC1C)c1cc2ccc(OC)cc2oc1=O	CMCC 93202	6.25 µg/mL
CCCCCCCCCCCCCCCCC(=O)NC(CCC(=O)O)(CCC(=O)O)CCC(=O)O	mc155	27 µg/mL
c1ccc(C(Cn2ccnc2)NCc2cccc3ccccc23)cc1	CIP 103599	>16 µg/mL
O=C(/C=C/c1ccccc1)Nc1ccccc1Cn1ccnc1	103599	8 µg/mL
COc1ccccc1-c1[nH]c2ccccc2c1C1=C(Br)C(=O)N(C)C1=O	SG987	6.25 µg/mL
O=C(Nc1ccccc1CN1CCOCC1)c1ccc(-c2ccccc2)cc1	103599	>16 µg/mL
Cc1ccccc1NC(=O)CCCCCCCc1[nH]c2ccccc2c1C1=C(Br)C(=O)NC1=O	SG987	0.41 µg/mL
CCO/N=C(/CN1CCN(c2cc3c(cc2F)c(=O)c(C(=O)O)cn3C2CC2)CC1)c1cc2ccccc2oc1=O	CMCC 93202	>12.5 µg/mL
Clc1ccc(C(Cn2ccnc2)NCc2ccc(-c3ccccc3)cc2)cc1	CIP 103599	16 µg/mL
O=C1CC(c2ccc(F)cc2)Nc2ccccc21	ATCC 607	125 µg/mL
CCCCCCCCCCCCCC#CC(=O)O	mc2155	10 µg/mL
O=C(/C=C/c1ccccc1)Nc1cccc(Cn2ccnc2)c1	103599	>16 µg/mL
CC[C@H](C)[C@@H](NC(=O)[C@@H](CCC(=O)O)NC(=O)[C@H](Cc1cnc[nH]1)NC(=O)[C@H](C)NC(=O)[C@H](N)Cc1ccccc1)C(=O)N[C@H]1CCCCNC1=O		>50 µg/mL
O=C(/C=C/c1ccccc1)Nc1ccc(CN2CCOCC2)cc1	103599	>16 µg/mL
CCCCCOc1cc(-c2ccccc2F)nc2ccccc12	ATCC 607	125 µg/mL
COc1ccc(-c2c(C3=C(Br)C(=O)NC3=O)c3ccccc3n2C)cc1	SG987	12.5 µg/mL
O=C(Nc1cccc(CN2CCOCC2)c1)c1ccc(-c2ccccc2)cc1	103599	>16 µg/mL
CCCCCCCCCCCCCCCC#CC(=O)O	mc2155	4 µg/mL
CCCCCCCCCCCCCCCCCCCCCCOC(=O)NC(C)(CCC(=O)O)CCC(=O)O	mc155	630 µg/mL
O=C(/C=C/c1ccccc1)Nc1ccccc1CN1CCOCC1	103599	>16 µg/mL
CCCCCCCCCCCCOc1cc(-c2cccc(F)c2)nc2ccccc12	ATCC 607	125 µg/mL
CCCCCCCCCCCC(CCCCCCCCCCC)NC(=O)NC(CCC(=O)O)(CCC(=O)O)CCC(=O)O	mc155	106 µg/mL
CCO/N=C(/CN1CCN(c2c(F)cc3c(=O)c(C(=O)O)cn(C4CC4)c3c2OC)CC1C)c1cc2ccc(OC)cc2oc1=O	CMCC 93202	6.25 µg/mL
COc1cccc(-c2[nH]c3ccccc3c2C2=C(Br)C(=O)N(C)C2=O)c1	SG987	3.125 µg/mL
NCCC[C@H](N)CC(=O)N[C@H]1CNC(=O)[C@H]([C@H]2C[C@H](O)NC(N)=N2)NC(=O)/C(=C/NC(N)=O)NC(=O)[C@H](CO)NC(=O)[C@H](CO)NC1=O	rabinowitchi 33	40 µg/mL
Fc1ccc(C(Cn2ccnc2)NC/C=C/c2ccccc2)cc1	CIP 103599	>16 µg/mL
O=C(Nc1ccc(Cn2ccnc2)cc1)c1ccc(-c2ccccc2)cc1	103599	>16 µg/mL
CCCCCOc1cc(-c2ccc(F)cc2)nc2ccccc12	ATCC 607	125 µg/mL
CCCCCCc1[nH]c2ccccc2c1C1=C(Br)C(=O)N(C)C1=O	SG987	3.12 µg/mL
CCCCCCCCCCCCCC#CCCC(=O)O	mc2155	>360 µg/mL
Cc1ccccc1NC(=O)CCCc1[nH]c2ccccc2c1C1=C(Br)C(=O)NC1=O	SG987	8 µg/mL
CO/N=C(/CN1CCN(c2c(F)cc3c(=O)c(C(=O)O)cn(C4CC4)c3c2OC)CC1)c1cc2ccc(OC)cc2oc1=O	CMCC 93202	6.25 µg/mL
CCCCCCCCCCCC(CCCCCCCCCCC)OC(=O)NC(CCC(=O)O)(CCC(=O)O)CCC(=O)O	mc155	72 µg/mL
Clc1ccc(C(Cn2ccnc2)NC/C=C/c2ccccc2)c(Cl)c1	CIP 103599	>16 µg/mL
Cc1c(C)c(C)[c-](C)c1C.N[C@@H](Cc1ccccc1)C(=O)[O-].[Cl][Ir+2]	VT 307	10 µg/mL
Cc1c(CN2CCN(C)CC2)cc(-c2ccc(Cl)cc2)n1-c1ccc(Cl)cc1	CIP 103599	25 µg/mL
COc1c(N2CCN(CC(=O)c3cc4ccc(O)cc4oc3=O)CC2)c(F)cc2c(=O)c(C(=O)O)cn(C3CC3)c12	CMCC 93202	6.25 µg/mL
C=C/C(C)=C/[C@@]1(C)SC(=O)C(C)=C1O	mc2155	75 µg/mL
Clc1ccc(C(Cn2ccnc2)NC/C=C/c2ccccc2)cc1	CIP 103599	>16 µg/mL
CN1CCN(Cc2ccccc2NC(=O)c2ccc(Cl)cc2)CC1	103599	>16 µg/mL
CCc1[nH]c2ccccc2c1C1=C(Br)C(=O)N(C)C1=O	SG987	50 µg/mL
Clc1ccc(C(Cn2ccnc2)NCc2cccc3ccccc23)c(Cl)c1	CIP 103599	>16 µg/mL
O=C(Nc1ccccc1CN1CCOCC1)c1ccc(Cl)cc1	103599	>16 µg/mL

8 of the rows above, restated:

CCO/N=C(/CN1CCN(c2c(F)cc3c(=O)c(C(=O)O)cn(C4CC4)c3c2OC)CC1C)c1cc2ccc(OC)cc2oc1=O ; strain or isolate: CMCC 93202 ; result: 6.25 µg/mL
CO/N=C(/CN1CCN(c2c(F)cc3c(=O)c(C(=O)O)cn(C4CC4)c3c2OC)CC1C)c1cc2ccccc2oc1=O ; strain or isolate: CMCC 93202 ; result: >12.5 µg/mL
O=C(/C=C/c1ccccc1)Nc1ccccc1Cn1ccnc1 ; strain or isolate: 103599 ; result: 8 µg/mL
CCCCCCCCCCCCCCOc1cc(-c2cccc(F)c2)nc2ccccc12 ; strain or isolate: ATCC 607 ; result: 125 µg/mL
CCCCCCCC(CCCCCCC)OC(=O)NC(CCC(=O)O)(CCC(=O)O)CCC(=O)O ; strain or isolate: mc155 ; result: 105 µg/mL
CCCCCCCCCCOc1cc(-c2cccc(F)c2)nc2ccccc12 ; strain or isolate: ATCC 607 ; result: 125 µg/mL
Clc1ccc(C(Cn2ccnc2)NC/C=C/c2ccccc2)cc1 ; strain or isolate: CIP 103599 ; result: >16 µg/mL
COc1ccc(-c2c(C3=C(Br)C(=O)NC3=O)c3ccccc3n2C)cc1 ; strain or isolate: SG987 ; result: 12.5 µg/mL